Pooled drug test results. Numbers come from NIAID ChemDB, via PubChem.

Shared fields: tests in culture; agent: Aspergillus flavus; read-out: zone

Neighbouring rows are from separate reports. An empty or dashed field is not shown. Zones are inhibition diameters on agar.

compound	strain or isolate	method	dose	value
Cc1ccc(C2c3ccc4ccccc4c3Oc3nc(-c4cc5ccccc5oc4=O)[nH]c(=O)c32)cc1		agar diffusion / agar	150 µg/mL	11 mm
O=C(CC1SC(=O)NC1=O)Nc1ccccc1C(=O)O			20000 µg/mL	<7 mm
O=C(NN=CC1C(c2ccccc2)=Nc2ccccc21)N1c2ccccc2C=Cc2ccccc21	MTCC-1973	agar diffusion	1000 µg/mL	10 mm
Cc1ccc(O)c(O)c1O			50 µg/mL	10 mm
CN(Cc1cc2ccccc2nc1Cl)c1ccc(Cl)cc1	MTCC 277	agar diffusion	200 µg/mL	17.73 mm
Nc1nc(COC(=O)c2cccc([N+](=O)[O-])c2Cl)cs1	NCIM No. 524		25 µg/mL	<10 mm
O=C1NC(=O)C(Cc2nc3ccccc3s2)S1			20000 µg/mL	<7 mm
COc1cccc(/C=c2\c(=O)[nH][nH]\c2=C2/C(=O)c3ccccc3N(C)C2=O)c1	ATCC 28542	agar diffusion	1 mg/mL	7 mm
Nc1nc(COC(=O)c2ccc(Br)cc2)cs1	NCIM No. 524		25 µg/mL	<10 mm
Cn1c(=O)c(-c2[nH][nH]c(=O)c2N=Nc2cccc(Br)c2)c(O)c2ccccc21	ATCC 28542	agar diffusion	1 mg/mL	14 mm
Clc1ccc(-c2nn(-c3ccccc3)cc2C2CC(c3ccc(Cl)cc3Cl)=NN2c2ccccc2)cc1			500 µg/mL	2 mm
COc1ccc2nc3n4c(c5ccccc5c-3c2c1)NN=C(c1ccccc1)C4	MTCC-1973	agar diffusion / visual reading	25 µg/mL	7 mm
CN(Cc1cc2ccccc2nc1Cl)c1cccc(Cl)c1	MTCC 277	agar diffusion	200 µg/mL	12.08 mm
O=C(CCc1c[nH]c2ccc(Cl)cc12)NCc1c[nH]c2ccc(Cl)cc12	NCIM 524		25 µg/mL	<10 mm
Cc1nc2ccccc2n(CC(=O)NN2C(=O)CSC2c2ccc(C(F)(F)F)cc2)c1=O			100 µg/mL	24 mm
O=C(CNC(=O)c1ccncc1)NN1C(=O)CSC1c1ccc(Cl)cc1		agar diffusion	100 µg/mL	20 mm
Cc1cc(=O)oc2cc(OCCCCCCn3cc(CN4CCCCC4)nn3)ccc12	MTCC 277	agar diffusion	100 µg/mL	14.7 mm
CSc1ccc(C2=NN(c3ccccc3)C(c3cn(-c4ccccc4)nc3-c3ccc(Cl)cc3)C2)cc1			1000 µg/mL	3 mm
Cc1ccc2[nH]c3nc(-n4nc(-c5ccccc5)c5ccccc5c4=O)c4ccccc4c3c2c1	MTCC-1973	agar diffusion / visual reading	25 µg/mL	8 mm
CSc1ccc(C2=NN(c3ccccc3)C(c3cn(-c4ccccc4)nc3-c3ccccc3)C2)cc1			1000 µg/mL	0 mm
Cc1nc2ccccc2n(CC(=O)NN2C(=O)CSC2c2ccccc2F)c1=O			50 µg/mL	8 mm
Oc1cc2ccccc2cc1/C=N/NC(=S)N/N=C/c1cc2ccccc2cc1O		agar diffusion / agar	2 mg/mL	0 mm
CC(=O)Nc1ccc(Br)cc1Sc1ncccc1[N+](=O)[O-]	MTCC 277		100 µg/mL	12 mm
Cc1ccc(N=Nc2c(-c3c(O)c4ccccc4n(C)c3=O)[nH][nH]c2=O)cc1	ATCC 28542	agar diffusion	1 mg/mL	8 mm
Cn1cc(CCCNC(=O)CCc2c[nH]c3ccc(Cl)cc23)c2cc(Cl)ccc21	NCIM 524		25 µg/mL	<10 mm
Clc1ccc(C2=NNc3c4ccccc4c4c5cc(Cl)ccc5nc-4n3C2)cc1	MTCC-1973	agar diffusion / visual reading	12.5 µg/mL	6 mm
Cn1c(=O)c(-c2[nH][nH]c(=O)c2N=Nc2ccccc2Cl)c(O)c2ccccc21	ATCC 28542	agar diffusion	1 mg/mL	14 mm
Cc1[nH]c2ccc(OC(F)(F)F)cc2c1CNC(=O)CCc1cn(C)c2ccc(Cl)cc12	NCIM 524		25 µg/mL	<10 mm
Clc1ccc2nc3n4c(c5ccccc5c-3c2c1)NN=C(c1ccccc1)C4	MTCC-1973	agar diffusion / visual reading	12.5 µg/mL	7 mm
O=[N+]([O-])c1ccc(NCc2cc3ccccc3nc2Cl)cc1	MTCC 277	agar diffusion	200 µg/mL	8.33 mm
Clc1ccc2c(c1)Sc1cccnc1N2CCCCCCN1c2ccc(Cl)cc2Sc2cccnc21	MTCC 277		100 µg/mL	10 mm
CSc1ccc(C2=NN(c3ccccc3)C(c3cn(-c4ccccc4)nc3-c3ccc(Br)cc3)C2)cc1			500 µg/mL	3 mm
Cc1ccc2[nH]c3c(c2c1)c1ccccc1c1nnc(C(C)(C)C)n13	MTCC-1973	agar diffusion / visual reading	12.5 µg/mL	8 mm
Cc1nc2ccccc2n(CC(=O)NN2C(=O)CSC2c2ccc(Cl)cc2)c1=O			50 µg/mL	13 mm
Fc1ccc2c(c1)Sc1cccnc1N2CCCCCCN1c2ccc(F)cc2Sc2cccnc21	MTCC 277		100 µg/mL	12 mm
Cn1c(=O)c(-c2[nH][nH]c(=O)c2N=Nc2cccc(Cl)c2)c(O)c2ccccc21	ATCC 28542	agar diffusion	1 mg/mL	15 mm
Nc1nc(COC(=O)c2ccc(Cl)cc2)cs1	NCIM No. 524		25 µg/mL	<10 mm
Cc1nc2ccccc2n(CC(=O)NN2C(=O)CSC2c2ccccc2Cl)c1=O			100 µg/mL	14 mm
CC(C)(C)c1nnc2c3ccccc3c3c4cc(Cl)ccc4[nH]c3n12	MTCC-1973	agar diffusion / visual reading	12.5 µg/mL	5 mm
O=c1[nH]c(-c2cc3ccccc3oc2=O)nc2c1C(c1ccccc1Cl)c1ccc3ccccc3c1O2		agar diffusion / agar	100 µg/mL	12 mm
Cc1ccc(/C=C2\SC(c3ccc(C)cc3)N(NC(=O)CNC(=O)c3ccncc3)C2=O)cc1		agar diffusion	100 µg/mL	10.6 mm
Cc1ccc(N=c2cc(N)nc3sc(S(N)(=O)=O)nn23)cc1		agar diffusion	5000 µg/mL	10 mm
Cc1ccc(C2=NNc3c4ccccc4c4c5cc(Cl)ccc5nc-4n3C2)cc1	MTCC-1973	agar diffusion / visual reading	25 µg/mL	10 mm
COc1ccc(C2c3ccc4ccccc4c3Oc3nc(-c4cc5ccccc5oc4=O)[nH]c(=O)c32)cc1OC		agar diffusion / agar	100 µg/mL	15 mm
C[C@H]1[C@H](O)[C@@H](C)/C=C/C=C/C=C/C=C/C=C/C=C/C=C/[C@H](O[C@@H]2O[C@H](C)[C@@H](O)[C@H](N)[C@@H]2O)C[C@@H]2O[C@](O)(C[C@@H](O)C[C@@H](O)CC[C@H](O)[C@@H](O)C[C@@H](O)CC(=O)O[C@H]1C)C[C@H](O)[C@H]2C(=O)O		agar diffusion	100 µM	21 mm
CC(=O)Nc1ccc(F)cc1Sc1ncccc1[N+](=O)[O-]	MTCC 277		100 µg/mL	10 mm
Cc1cc(=O)oc2c(C=Nc3cccc4cccc(N=Cc5c(O)ccc6c(C)cc(=O)oc56)c34)c(O)ccc12	MTCC 1883		500 µg/mL	25 mm
O=C(NN1C(=O)CSC1C1C(c2ccccc2)=Nc2ccc(Cl)cc21)N1c2ccccc2C=Cc2ccccc21	MTCC-1973	agar diffusion	750 µg/mL	13 mm
COc1ccc2[nH]c3nc(-n4[nH]c(=O)c5ccccc5c4=O)c4ccccc4c3c2c1	MTCC-1973	agar diffusion / visual reading	3.125 µg/mL	13 mm
O=C(CNC(=O)c1ccncc1)NN1C(=O)CSC1c1ccccc1Cl		agar diffusion	50 µg/mL	18 mm
Cn1c(=O)c(-c2[nH][nH]c(=O)c2C=Nc2ccc(Cl)cc2)c(O)c2ccccc21	ATCC 28542	agar diffusion	1 mg/mL	16 mm
O=C1NC(=O)C(Cc2nc3ccccc3c(=O)o2)S1			20000 µg/mL	9 mm
NC(=S)N/N=C/c1ccccc1O		agar diffusion / agar	2 mg/mL	13 mm
CN1C(=O)/C(=c2/[nH][nH]c(=O)/c2=C\c2ccc(Cl)cc2)C(=O)c2ccccc21	ATCC 28542	agar diffusion	1 mg/mL	7 mm
COc1ccc(C2SCC(=O)N2NC(=O)Cn2c(=O)c(C)nc3ccccc32)cc1OC			50 µg/mL	8 mm
CCCCNCc1cc2ccccc2nc1Cl	MTCC 277	agar diffusion	200 µg/mL	8.25 mm
COc1ccccc1C1SCC(=O)N1NC(=O)CNC(=O)c1ccncc1		agar diffusion	100 µg/mL	15 mm
Clc1nc2ccccc2cc1CNc1ccc(Br)cc1	MTCC 277	agar diffusion	200 µg/mL	10.46 mm
Cc1c(CNC(=O)CCc2cn(C)c3ccc(Cl)cc23)c2cc(OC(F)(F)F)ccc2n1C	NCIM 524		25 µg/mL	<10 mm
Nc1cc(=Nc2ccc(Br)cc2)n2nc(S(N)(=O)=O)sc2n1		agar diffusion	5000 µg/mL	3 mm
O=C(NN=CC1C(c2ccccc2)=Nc2ccc(Cl)cc21)N1c2ccccc2C=Cc2ccccc21	MTCC-1973	agar diffusion	1000 µg/mL	14 mm
CN(Cc1cc2ccccc2nc1Cl)c1ccccc1	MTCC 277	agar diffusion	200 µg/mL	14.16 mm
C=C1SCN(NC(=O)CNC(=O)c2ccncc2)C1=O		agar diffusion	50 µg/mL	11 mm
Clc1ccc(COC(Cn2ccnc2)c2ccc(Cl)cc2Cl)c(Cl)c1		agar diffusion	30 µg/mL	23 mm
Clc1nc2ccccc2cc1CNCc1ccccc1	MTCC 277	agar diffusion	200 µg/mL	14.49 mm
O=C(CNC(=O)c1ccncc1)NN1C(=O)/C(=C/c2ccccc2[N+](=O)[O-])SC1c1ccccc1[N+](=O)[O-]		agar diffusion	100 µg/mL	24 mm

Repeating the final 6 entries:

compound | strain or isolate | method | dose | value
O=C(NN=CC1C(c2ccccc2)=Nc2ccc(Cl)cc21)N1c2ccccc2C=Cc2ccccc21 | MTCC-1973 | agar diffusion | 1000 µg/mL | 14 mm
CN(Cc1cc2ccccc2nc1Cl)c1ccccc1 | MTCC 277 | agar diffusion | 200 µg/mL | 14.16 mm
C=C1SCN(NC(=O)CNC(=O)c2ccncc2)C1=O |  | agar diffusion | 50 µg/mL | 11 mm
Clc1ccc(COC(Cn2ccnc2)c2ccc(Cl)cc2Cl)c(Cl)c1 |  | agar diffusion | 30 µg/mL | 23 mm
Clc1nc2ccccc2cc1CNCc1ccccc1 | MTCC 277 | agar diffusion | 200 µg/mL | 14.49 mm
O=C(CNC(=O)c1ccncc1)NN1C(=O)/C(=C/c2ccccc2[N+](=O)[O-])SC1c1ccccc1[N+](=O)[O-] |  | agar diffusion | 100 µg/mL | 24 mm